Target: viral CC chemokine inhibitor (vCCI), rabbitpox, produced in Pichia pastoris (rabbitpox virus)
Experiment: fluorescence polarisation

“viral Macrophage Inflammatory Protein-II (vMIP-II) (from UniProt Q98157 21-94) (natural protein)” gave a Kd of 0.06 nM.
